{"source": "paper PMC4668926", "about": "(Biochemistry, 2015)", "test_system": "CC(C)(CO)C(=O)C(=O)O", "assay": "purified protein", "conditions": "NADPH 50 µM, 100 mM HEPES pH 7.5, 50 mM NaCl, 25 °C, Hill fit"}
{"substance": "KPR (ketopantoate reductase) (Staphylococcus aureus; A181L)", "values": [{"measurement": "K0.5", "value": "8100 ± 100", "unit": "µM"}, {"measurement": "kcat", "value": 18.2, "unit": "s⁻¹"}]}
